Measured values from several laboratories, pooled; numbers as filed in NIAID ChemDB.

All rows: tests in culture; species: HIV-2; measure: EC50

An empty or dashed field is not shown. Conditions beyond the fields shown may differ between rows. ECn: concentration that inhibits the pathogen or its effect by n%.

| SMILES | cells | strain or isolate | result |
|---|---|---|---|
| CCC(CC)(NP(=O)(OC[C@@H]1C=C[C@H](n2cc(C)c(=O)[nH]c2=O)O1)Oc1ccccc1)C(=O)OC | CEM | - | 28.3 µM |
| CC(C)(C)C(=O)SCCOP(=O)(OCCSC(=O)C(C)(C)C)OC[C@@H]1O[C@H](n2cc(Cl)c(N)nc2=O)C[C@H]1F | CEM + CEM/O | ROD | >50 µM |
| Cc1cn([C@@H]2O[C@H](COC(=S)N(C)C)C3(OS(=O)(=O)C=C3N)[C@H]2O[Si](C)(C)C(C)(C)C)c(=O)n(C)c1=O | CEM + CEM/0 | - | >10 µM |
| [N-]=[N+]=N[C@H]1C[C@@H](CO)O[C@H]1n1cnc2c(NC3CCCCC3)ncnc21 | MT-4 | ROD | >125 µg/mL |
| CCCCO[C@]12CS(=O)(=O)O[C@@]13[C@@H](CN2)O[C@@H](n1cc(C)c(=O)[nH]c1=O)[C@@H]3O | MT-4 | ROD | >125 µM |
| CC(=O)OCCOCN1c2cc(-c3ccccc3)sc2C(=O)N(Cc2ccccc2)S1(=O)=O | CEM | - | >400 µg/mL |
| CC(=O)OC[C@H]1O[C@@H](n2cc(C)c(=O)n(C)c2=O)[C@H](O[Si](C)(C)C(C)(C)C)C12OS(=O)(=O)C=C2N | CEM + CEM/0 | - | >50 µM |
| CC1(C)[C@@H](CO)CC[C@@]1(C)Cn1cc(I)c(=O)[nH]c1=O | CEM + CEM/0 | - | >100 µg/mL |
| O=c1nc2c(cn1[C@@H]1O[C@H](CO)[C@@H](O)[C@H]1O)CON2 | CEM | ROD | >300 µM |
| Cc1ccc(S(=O)(=O)NC(Cc2ccccc2)c2nnc(SCc3ccccc3)o2)cc1 | MT-4 | ROD | >11.67 µg/mL |
| CC1(C)[C@@H](CO)CC[C@@]1(C)Cn1cnc2c(Cl)ncnc21 | CEM + CEM/0 | - | >14 µg/mL |
| CC(C)(C)C(=O)SCCOP(=O)(OCCSC(=O)C(C)(C)C)OC[C@@H]1O[C@H](n2cc(Cl)c(=O)[nH]c2=O)C[C@H]1F | CEM + CEM/O | ROD | >50 µM |
| CCCCCCNP(=O)(OC[C@H]1O[C@@H](n2cc(C)c(=O)[nH]c2=O)C[C@@H]1N=[N+]=[N-])Oc1ccccc1 | CEM + CEM/O | ROD | >89 µM |
| Nc1ccc([C@H]2C[C@H](O)[C@@H](CO)O2)c(F)c1 | CEM | - | >250 µM |
| Cc1ccnc2c1NC(=O)c1cccnc1N2C1CC1 | MT-4 | ROD | >40 µg/mL |
| Nc1ncnc2c1ccn2[C@H]1C[C@@H](O)[C@H](O)[C@@H]1O | CEM | ROD | >250 µg/mL |
| CC(=O)Oc1ccccc1COP(=O)(OCc1ccccc1OC(C)=O)OC[C@@H]1C=C[C@H](n2cc(C)c(=O)[nH]c2=O)O1 | CEM | - | 0.22 µM |
| CC1(C)[C@@H](CO)CC[C@@]1(C)Cn1cnc2c(N)ncnc21 | CEM + CEM/0 | - | >100 µg/mL |
| OCC(O)C(O)C(O)c1nnc2n1N=C(c1ccccc1)CS2 | MT-4 | ROD | 17.4 µg/mL |
| CC(=O)Oc1ccc(COP(=O)(OCc2ccc(OC(C)=O)cc2)OC[C@@H]2C=C[C@H](n3cc(C)c(=O)[nH]c3=O)O2)cc1 | CEM + CEM TK- | - | 0.13 µM |
| CSc1nc(N)cc(=O)n1CCOCP(=O)(O)O | CEM + CEM-SS | ROD | >100 µg/mL |
| CCO[C@]12CS(=O)(=O)O[C@@]13C(CN2)O[C@@H](n1cc(C)c(=O)n(C)c1=O)[C@@H]3O[Si](C)(C)C(C)(C)C | CEM | ROD | >50 µM |
| c1ccc(CNCc2ccc(CN3CCCNCCNCCCNCC3)cc2)nc1 | - | ROD | 0.03 µg/mL |
| C=C1[C@H](CO)[C@H]1Cn1cnc2c(N)ncnc21 | - | - | >100 µM |
| O=C1NS(=O)(=O)N(Cc2ccccc2)c2sc(-c3ccccc3)cc21 | CEM | - | >400 µg/mL |
| Cc1ccc(S(=O)(=O)NC(C)c2nnc(SCc3ccc(Cl)cc3)o2)cc1 | MT-4 | ROD | >27.93 µg/mL |
| Nc1ccn([C@H]2CC[C@@H](CO)O2)c(=O)n1 | CEM + CEM-SS | ROD | 0.0621 µM |
| Nc1ncnc2c1ncn2[C@@H]1C[C@@H](O)[C@@H](O)[C@H]1O | MT-4 | ROD | >0.8 µM |
| CO[C@@H]1C[C@H](n2ccc3c(N)ncnc32)[C@@H](O)[C@H]1O | CEM | ROD | >250 µg/mL |
| Cc1cn([C@H]2C=C[C@@H](CO)O2)c(=O)[nH]c1=O | CEM + CEM TK- | - | 33 µM |
| Nc1ncnc2c1ncn2[C@H]1C[C@@H](O)[C@H](O)[C@@H]1O | CEM | - | >4 µM |
| Cc1cccc(N2C(=O)CSC2c2c(Cl)cccc2Cl)n1 | MT-4 | ROD | >284.7 µM |
| C=CCOC[C@H]1O[C@@H](n2cc(C)c(=O)n(C)c2=O)[C@H](O[Si](C)(C)C(C)(C)C)C12OS(=O)(=O)C=C2N | MT-4 | - | >50 µM |
| CC(NS(=O)(=O)c1ccc(Cl)cc1)c1nnc(SCc2ccccc2)o1 | MT-4 | ROD | >65.63 µg/mL |
| O=C1c2sc(-c3ccccc3)cc2NS(=O)(=O)N1COCCO | CEM | - | >400 µg/mL |
| CCc1c(Sc2cc(C)cc(C)c2)n(CCCCC(=O)NCCCCCCCCCCNC(=O)CCc2cn([C@H]3C[C@H](N=[N+]=[N-])[C@@H](CO)O3)c(=O)[nH]c2=O)c(=O)[nH]c1=O | PBMC | D194 | >10 µM |
| [N-]=[N+]=N[C@H]1C[C@@H](CO)O[C@H]1n1cnc2c(NC3CC3)ncnc21 | MT-4 | ROD | >125 µg/mL |
| C=C1[C@H](CO)[C@H]1Cn1cnc2c(N)nc(N)nc21 | - | - | >100 µM |
| COc1ccnc2[nH]cc(C(=O)C(=O)N3CCN(C(=O)c4ccccc4)C[C@H]3C)c12 | - | - | >300 µM |
| CCCCCO[C@]12CS(=O)(=O)O[C@@]13[C@@H](CN2)O[C@@H](n1cc(C)c(=O)[nH]c1=O)[C@@H]3O | MT-4 | ROD | >250 µM |
| O=c1nc(NO)c(CCCl)cn1[C@H]1C[C@H](O)[C@@H](CO)O1 | CEM | ROD | >300 µM |
| CSCCC(NS(=O)(=O)c1ccc(C)cc1)c1nnc(SCc2ccc(F)cc2)o1 | MT-4 | ROD | >0.5 µg/mL |
| CC1(C)[C@@H](CO)CC[C@@]1(C)Cn1cc(Br)c(=O)[nH]c1=O | CEM + CEM/0 | - | >100 µg/mL |
| CSCCC(NS(=O)(=O)c1ccc(Cl)cc1)c1nnc(SCc2ccc(Cl)cc2)o1 | MT-4 | ROD | >11.88 µg/mL |
| C=C1O[C@@H](n2cc(C)c(=O)n(C)c2=O)[C@H](O[Si](C)(C)C(C)(C)C)[C@]12OS(=O)(=O)C=C2N | MT-4 | - | >50 µM |
| CCOC(=O)c1nnsc1NCCCCNc1snnc1C(=O)OCC | - | ROD | >105 µM |
| Cc1cn([C@@H]2O[C@H](CN3CCN(Cc4ccccc4)CC3)C3(OS(=O)(=O)C=C3N)[C@H]2O[Si](C)(C)C(C)(C)C)c(=O)n(C)c1=O | CEM + CEM/0 | - | >50 µM |
| CC1CCC(C(C)C)/C(=N/NC(=S)Nc2cccc(Cl)c2)C1 | MT-4 | ROD | >44.6 µg/mL |
| [N-]=[N+]=N[C@H]1C[C@H](n2cc(CCON)c(=O)[nH]c2=O)O[C@@H]1CO | CEM | ROD | >300 µM |
| Cc1cn([C@H]2C=C[C@@H](CO)O2)c(=O)[nH]c1=O | CEM + CEM/0 | ROD | 0.27 µM |
| CN1OCc2cn([C@@H]3O[C@H](CO)[C@H]4OC(C)(C)O[C@H]43)c(=O)nc21 | CEM | ROD | >300 µM |
| COP(=O)(c1cc(C)cc(CCC#N)c1)c1c(C(N)=O)[nH]c2ccc(Cl)cc12 | H9 | ROD | >1.25 µM |
| CC(O)c1nc(=O)n([C@@H]2O[C@H](CO)[C@H]3OC(C)(C)O[C@H]32)cc1CO | CEM | ROD | >300 µM |
| CC(C)(C)C(=O)SCCOP(=O)(OCCSC(=O)C(C)(C)C)OC[C@H]1O[C@@H](n2cc(Cl)c(=O)[nH]c2=O)C[C@@H]1F | CEM + CEM/O | ROD | 5 µM |
| C=C1[C@H](CO)[C@H]1Cn1cnc2c(=O)[nH]c(N)nc21 | - | - | >100 µM |
| CC(C)[C@@H]1CC[C@@H](C)C/C1=N\NC(N)=S | MT-4 | ROD | >12.7 µg/mL |
| CN1OCCc2cn([C@H]3C[C@H](O)[C@@H](CO)O3)c(=O)nc21 | CEM | ROD | >300 µM |
| CCCC(CCC)(NP(=O)(OC[C@@H]1C=C[C@H](n2cc(C)c(=O)[nH]c2=O)O1)Oc1ccccc1)C(=O)OC | CEM + CEM TK- | - | >50 µM |
| C=C1[C@H](CO)[C@H]1Cn1cnc2c(=O)[nH]cnc21 | - | - | >100 µM |
| Cc1cn([C@@H]2O[C@H](CN3CCNCC3)C3(OS(=O)(=O)C=C3N)[C@H]2O[Si](C)(C)C(C)(C)C)c(=O)n(C)c1=O | CEM + CEM/0 | - | >50 µM |